PubChem BioAssay AID504761 | Drosophila RNAi Screening Center | 2011
Aim: 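Insect host genes that dengue virus relies on to spread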 (primary screen). Cell system: D.Mel-2 cells from Drosophila. Reagent: long dsRNA against Drosophila genes. Conditions: infection with dengue virus type 2; dose and infection time not stated. Measurement: 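Cells stained for dengue envelope protein and imaged; percent of infected cells per well on duplicate plates, ranked by infection, with stained nuclei counted for cell number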. Reading the numbers: infection score: higher = more virus-infected cells; cell count: higher = more cells in the well. Call rule: 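Low infection ranks in the two replicates (chance level up to 0.065) followed by a retest with a 1.5-fold or larger significant decrease, p below 0.05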. Meaning of the calls: active = confirmed: knock-down lowers infection; inactive = not picked or not confirmed.
The deposit covers about 22,000 reagents; this is a random part of those that have a named target and a result. In the full data, 116 (0.52%) got an active call. 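Calls depend on retest data that are not deposited; infection was ranked per plate without normalising between plates; the unit of the infection score is not given.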 Raw values vary from plate to plate and are shown uncorrected. A plus sign joins genes that one reagent is predicted to hit. The record does not give: the amount of reagent, the time to read-out.

infection score, replicate 1 | infection score, replicate 2 | cell count, replicate 1 | cell count, replicate 2 | Outcome | target | dsRNA
2.23 | 2.57 | 6598 | 6542 | inactive | Tehao (GeneID 34761) | DRSC03449
7.9 | 5.71 | 6307 | 6389 | inactive | CG14456 (GeneID 40481) | DRSC11713
15.5 | 9.31 | 5858 | 6013 | inactive | CG14456 (GeneID 40481) | DRSC26740
2.98 | 17.1 | 6908 | 6417 | inactive | CG31959 (retired record) (GeneID 326180) | DRSC22912
10.2 | 1.21 | 3783 | 7166 | inactive | CG13364 (GeneID 50364) | DRSC17898
1.34 | 0.86 | 5980 | 6164 | inactive | CG13364 (GeneID 50364) | DRSC21263
5.04 | 19.4 | 5828 | 5162 | inactive | CG13364 (GeneID 50364) | DRSC26743
1.3 | 1.15 | 6443 | 6426 | inactive | CG33342 (GeneID 2768684) | DRSC13662
16.1 | 5.23 | 5653 | 5679 | inactive | Hmt4-20 (GeneID 31015) | DRSC18482
1.13 | 5.98 | 6544 | 5940 | inactive | Hmt4-20 (GeneID 31015) | DRSC23921
4.09 | 5.26 | 5993 | 6009 | inactive | BBS4 (GeneID 36167) | DRSC06352
12.7 | 3.36 | 6035 | 6725 | inactive | BBS4 (GeneID 36167) | DRSC28073
1.19 | 6.76 | 6281 | 6136 | inactive | Asciz (GeneID 38381) | DRSC08421
– | 7.68 | 360 | 612 | inactive | CG15745 (retired record) (GeneID 32283) | DRSC19711
3.64 | 6.09 | 6370 | 6373 | inactive | CG31953 (retired record) + gkt | DRSC00709
3.69 | 2.36 | 6295 | 5838 | inactive | RabGGTb (GeneID 47757) | DRSC00804
18 | 17.4 | 6003 | 5634 | inactive | RabGGTb (GeneID 47757) | DRSC29549
1.72 | 9.83 | 6295 | 5877 | inactive | CG7341 (GeneID 40004) | DRSC10818
1.24 | 5.21 | 6526 | 6779 | inactive | CG6191 (GeneID 36513) | DRSC23127
24.8 | 20.6 | 5782 | 5941 | inactive | CG12129 (GeneID 36044) | DRSC06105
8.07 | 9.49 | 4722 | 4562 | inactive | flr (GeneID 39505) | DRSC09787
3.47 | 22 | 835 | 4736 | inactive | CG6041 (GeneID 31527) | DRSC18396
4.79 | 2.05 | 6874 | 6695 | inactive | CG6041 (GeneID 31527) | DRSC24234
14.7 | 4.61 | 6280 | 7004 | inactive | Cyp313a5 (GeneID 41486) | DRSC16628
0.61 | 5.29 | 6257 | 6316 | inactive | CG14341 (GeneID 33301) | DRSC00371
2.31 | 7.62 | 6240 | 6586 | inactive | Or22b (GeneID 33336) | DRSC00765
2.86 | 4.37 | 6298 | 6470 | inactive | Cpr97Ea (GeneID 43258) | DRSC15974
8.52 | 4.1 | 6489 | 6684 | inactive | Cpr97Ea (GeneID 43258) | DRSC26548
2.19 | 0.68 | 5991 | 6159 | inactive | CG31807 (GeneID 318953) | DRSC01550
11.9 | 4.99 | 6380 | 6110 | inactive | CG10602 (GeneID 35146) | DRSC02075
0.55 | 18.3 | 7033 | 5324 | inactive | CG33217 (GeneID 2768951) | DRSC22907
9.63 | 4.27 | 5679 | 5757 | inactive | CG33217 (GeneID 2768951) | DRSC28139
10.5 | 14.4 | 6465 | 5775 | inactive | CG3402 (GeneID 38077) | DRSC08567
0.48 | 2.98 | 6228 | 6413 | inactive | fus (GeneID 44095) | DRSC05569
21.3 | 7.25 | 5110 | 6617 | inactive | fus (GeneID 44095) | DRSC07107
12.6 | 45.7 | 6384 | 4595 | inactive | CG3085 (GeneID 37663) | DRSC04335
2.35 | 6.18 | 6694 | 7037 | inactive | Nep5 (GeneID 43255) | DRSC16004
3.13 | 2.49 | 6064 | 6420 | inactive | psq (GeneID 36118) | DRSC23094
13.9 | 5.69 | 6500 | 6377 | inactive | Sur (GeneID 34350) | DRSC03447
26.7 | 17.3 | 6074 | 5952 | inactive | Sur (GeneID 34350) | DRSC27276
1.65 | 2.48 | 6135 | 6413 | inactive | CG5895 (GeneID 39752) | DRSC10554
1.58 | 2.54 | 6412 | 6861 | inactive | Ir76b (GeneID 40198) | DRSC10831
3.15 | 8.26 | 6391 | 4821 | inactive | Rsod (GeneID 43586) | DRSC15424
17.1 | 8.88 | 6518 | 6396 | inactive | Ca-alpha1D (GeneID 34950) | DRSC03284
7.84 | 28.4 | 6546 | 5685 | inactive | CG14471 (retired record) (GeneID 35525) | DRSC04865
8.89 | 2.23 | 5680 | 5751 | inactive | CG14471 (retired record) (GeneID 35525) | DRSC26266
0.94 | 4.34 | 6400 | 5718 | inactive | CG33160 (GeneID 326265) | DRSC08197
4.83 | 1.8 | 6311 | 6598 | inactive | CG33160 (GeneID 326265) | DRSC26770
1.41 | 1.41 | 6152 | 6580 | inactive | CAH2 (GeneID 39390) | DRSC10746
6.22 | 6.8 | 1174 | 1881 | inactive | CG12725 (GeneID 32298) | DRSC19501
7.31 | 7.24 | 6296 | 6585 | inactive | CG12725 (GeneID 32298) | DRSC24026
2.7 | 6.03 | 6824 | 6934 | inactive | CG10332 (retired record) + IM18 | DRSC04064
8.7 | 8.05 | 5277 | 5352 | inactive | Cbp20 (GeneID 42166) | DRSC16601
5.32 | 8.82 | 5584 | 6799 | inactive | Exn (GeneID 39900) | DRSC09673
4.76 | 2.96 | 6359 | 6961 | inactive | Exn (GeneID 39900) | DRSC10077
8.48 | 11.4 | 6194 | 5793 | inactive | Exn (GeneID 39900) | DRSC23685
2.01 | 3.68 | 6672 | 6305 | inactive | Exn (GeneID 39900) | DRSC24537
6.66 | 3.58 | 7038 | 6673 | inactive | ova (GeneID 34362) | DRSC02879
8.34 | 2.94 | 5913 | 6119 | inactive | Zyx (GeneID 317824) | DRSC17186
18.2 | 22.6 | 6134 | 5072 | inactive | Non2 (GeneID 38341) | DRSC08272
4.72 | 4.75 | 6270 | 6207 | inactive | Non2 (GeneID 38341) | DRSC25342
7.76 | 11.6 | 5861 | 5731 | inactive | CNBP (GeneID 37646) | DRSC04116
0.9 | 10.5 | 5877 | 6078 | inactive | CNBP (GeneID 37646) | DRSC21317
19.4 | 16 | 3278 | 5907 | inactive | CNBP (GeneID 37646) | DRSC29556
– | 6.29 | 393 | 1621 | inactive | ppk20 (GeneID 43486) | DRSC16260
16.1 | 11.8 | 5268 | 4618 | inactive | ppk20 (GeneID 43486) | DRSC28819
4.29 | 3.15 | 6639 | 6186 | inactive | CG6330 (GeneID 43240) | DRSC16022
12.9 | 26.1 | 6919 | 4797 | inactive | CG5196 (GeneID 41522) | DRSC15735
5.75 | 6.74 | 6539 | 6568 | inactive | CG5196 (GeneID 41522) | DRSC26959
2.27 | 17.4 | 5691 | 5663 | inactive | RpS28b (GeneID 31897) | DRSC18258
22.1 | 21.5 | 5612 | 5750 | inactive | RpS28b (GeneID 31897) | DRSC29909
2.82 | 0.36 | 6055 | 6112 | inactive | CG7992 (GeneID 32917) | DRSC20070
– | – | 298 | 278 | inactive | Jon99Fii + Jon99Cii + Jon99Ciii + 1 more | DRSC15298
22.5 | 3.07 | 4811 | 6293 | inactive | CG12499 (GeneID 42637) | DRSC14521

10 of these entries in another layout.
CG15745 (retired record) (GeneID 32283) [DRSC19711]
- infection score, replicate 2: 7.68
- cell count, replicate 1: 360
- cell count, replicate 2: 612
- Outcome: inactive

CG31953 (retired record) + gkt [DRSC00709]
- infection score, replicate 1: 3.64
- infection score, replicate 2: 6.09
- cell count, replicate 1: 6370
- cell count, replicate 2: 6373
- Outcome: inactive

RabGGTb (GeneID 47757) [DRSC00804]
- infection score, replicate 1: 3.69
- infection score, replicate 2: 2.36
- cell count, replicate 1: 6295
- cell count, replicate 2: 5838
- Outcome: inactive

RabGGTb (GeneID 47757) [DRSC29549]
- infection score, replicate 1: 18
- infection score, replicate 2: 17.4
- cell count, replicate 1: 6003
- cell count, replicate 2: 5634
- Outcome: inactive

CG7341 (GeneID 40004) [DRSC10818]
- infection score, replicate 1: 1.72
- infection score, replicate 2: 9.83
- cell count, replicate 1: 6295
- cell count, replicate 2: 5877
- Outcome: inactive

CG6191 (GeneID 36513) [DRSC23127]
- infection score, replicate 1: 1.24
- infection score, replicate 2: 5.21
- cell count, replicate 1: 6526
- cell count, replicate 2: 6779
- Outcome: inactive

CG12129 (GeneID 36044) [DRSC06105]
- infection score, replicate 1: 24.8
- infection score, replicate 2: 20.6
- cell count, replicate 1: 5782
- cell count, replicate 2: 5941
- Outcome: inactive

flr (GeneID 39505) [DRSC09787]
- infection score, replicate 1: 8.07
- infection score, replicate 2: 9.49
- cell count, replicate 1: 4722
- cell count, replicate 2: 4562
- Outcome: inactive

CG6041 (GeneID 31527) [DRSC18396]
- infection score, replicate 1: 3.47
- infection score, replicate 2: 22
- cell count, replicate 1: 835
- cell count, replicate 2: 4736
- Outcome: inactive

CG6041 (GeneID 31527) [DRSC24234]
- infection score, replicate 1: 4.79
- infection score, replicate 2: 2.05
- cell count, replicate 1: 6874
- cell count, replicate 2: 6695
- Outcome: inactive
